Measured values from several laboratories, pooled; numbers as filed in NIAID ChemDB.

Common to all: growth or infection tests; agent: HIV-1

Blank or dashed fields: not listed here. ECn is the concentration giving n% inhibition of infection, replication or growth. a–b is a range or a potency band. Rows are shuffled and stem from different studies.

SMILES,strain,read-out,cells,method,changes,setting,result
CNNC(=NS(=O)(=O)c1cc(C#N)c(NNC)cc1S)NNC,RF,EC50,CEM,cytopathic effect / XTT,,,>110 µM
CCOC(OCC)c1cnnn1[C@@H]1O[C@H](CO[Si](C)(C)C(C)(C)C)C2(OS(=O)(=O)C=C2N)[C@H]1O[Si](C)(C)C(C)(C)C,IIIB,EC50,CEM,syncytia,,,150 µM
Cc1cn(-c2ccccc2[N+](=O)[O-])c2ccccc12,IIIB,EC50,C8166,syncytia,,,12.09 µg/mL
Cc1cn([C@H]2C[C@H](N=[N+]=[N-])[C@@H](CO)O2)c(=O)[nH]c1=O,IIIB,EC50,MT-4,cytopathic effect,,,0.003 µM
Cc1cn([C@H]2C[C@H](N=[N+]=[N-])[C@@H](CN3C(=O)c4ccc([N+](=O)[O-])cc4C3=O)O2)c(=O)[nH]c1=O,IIIB,EC50,CEM,syncytia,,,29.9 µM
Nc1ccn([C@H]2CC[C@@H](CO)O2)c(=O)n1,RTMN(184) (RT M41L M184V T215Y),EC50,HT4 + HT4 LacZ-1,plaque count,RT-M41L M184V T215Y,,1.57 µM
Cc1c(C(C)c2c(F)cccc2F)nc(SC2CCCC2)[nH]c1=O,NNRTI-resistant,EC50,MT-4,cytopathic effect / MTT,RT-Y181C,,0.1 µM
Nc1nc(=O)n([C@@H]2CS[C@H](CO)O2)cc1F,LAV-1,EC50,HT4 + HT4-6C,,,,0.02 µM
Cc1c(OC(=O)CCCCO[C@H]2O[C@H](CO)[C@@H](O)[C@H](O)[C@@H]2O)cccc1C(=O)N[C@@H](CSc1ccccc1)[C@H](O)CN1C[C@H]2CCCC[C@H]2C[C@H]1C(=O)NC(C)(C)C,IIIB,EC50,MT-4,cytopathic effect / MTT,,,0.24 µM
CC1CNC(=O)c2ccccc2SSc2ccccc2C(=O)N1,IIIB,EC50,CEM,,,,1.8–6.5 µg/mL
Fc1cccc(F)c1Cn1c(-c2c(F)cccc2F)nc2c(Br)cccc21,,EC50,MT-4,cytopathic effect / MTT,RT-L100I,,0.3 µM
Nc1nc2c(ncn2[C@H]2CO[C@@H](CO)O2)c(=O)[nH]1,,EC50,MT-2,,RT-M184V,,0.75 µM
C[C@@H]1CCCC[C@H]1Oc1cc(CCc2ccccc2)[nH]c(=O)c1I,SF33,EC50,TZM-bl,ELISA,,,0.014 µM
Cc1cn([C@@H]2O[C@H](CO[Si](C)(C)C(C)(C)C)C3(OS(=O)(=O)C=C3N)[C@H]2O[Si](C)(C)C(C)(C)C)c(=O)n(C)c1=O,IIIB,EC50,CEM,,,,0.05 µM
NNC(=O)c1ccccc1SSc1ccccc1C(=O)NN,RF,EC50,CEM,cytopathic effect / XTT,,,1.51 µM
COC(=O)c1cnnn1[C@@H]1O[C@H](CO[Si](C)(C)C(C)(C)C)C2(OS(=O)(=O)C=C2N)[C@H]1O[Si](C)(C)C(C)(C)C,HE,EC50,CEM,p24,,,0.45 µM
CCC(Cc1ccccc1)c1cc(O)c(C(c2cccc(NS(=O)(=O)c3ccc(OC)cc3)c2)C2CC2)c(=O)o1,IIIB,EC50,MT-4,p24,,,1.8 µM
O=c1[nH]cnc2c1ncn2[C@H]1CC[C@@H](CO)O1,RTMC(181 184) (RT-D67N K70R Y181C M184V 215F 219Q),EC50,HT4 + HT4 LacZ-1,plaque count,RT-D67N K70R Y181C M184V T215F K219Q,,2.04 µM
C1CNCCNCCCN(CCCN2CCCNCCNCCCNCC2)CCNC1,NL4-3,EC50,MT-4,cytopathic effect / MTS,AMD3100-resistant,,67.1 µM
CN(Cc1ccc(F)cc1F)c1ccc([N+](=O)[O-])cn1,NL4-3,EC50,HEK 293,flow cytometry,,pseudotyped,4.4 µM
CC(C)(C)NC(=O)[C@@H]1C[C@@H]2CCCC[C@@H]2CN1C[C@@H](OC(=O)CCCCO[C@@H]1[C@@H](O)[C@@H](O)O[C@H](CO)[C@H]1O)[C@H](Cc1ccccc1)NC(=O)[C@H](CC(N)=O)NC(=O)c1ccc2ccccc2n1,IIIB,EC50,MT-4,cytopathic effect / MTT,,,0.062 µM
CC(C)=CCN1Cc2cc(Cl)cc3[nH]c(=S)n(c23)C[C@@H]1C,,EC95,MT-4,,RT-M41L T215Y K103N,,>3 µM
Nc1ccn([C@H]2CC[C@@H](CO)O2)c(=O)n1,IIIB,EC50,MT-4,cytopathic effect / MTT,,,0.0098 µM
c1ccc(CNCc2ccc(CN3CCCNCCNCCCNCC3)cc2)nc1,IIIB,EC50,MT-4,cytopathic effect / MTS,,,0.0123 µM
c1cc(CN2CCCNCCNCCCNCC2)ccc1CN1CCCNCCNCCCNCC1,AMD3100-resistant,EC50,MT-4,cytopathic effect / MTT,,,>100 µM
O=[N+]([O-])c1ccc(-n2ccc3ccccc32)cc1,IIIB,EC50,C8166,syncytia,,,35.82 µg/mL
Cc1cc(O)c(C(c2cccc(NS(=O)(=O)c3cn(C)cn3)c2)C2CC2)c(=O)o1,IIIB,EC50,MT-4,p24,,,>>3 µM
Cc1nc2ccccc2c(-c2ccc3c4c(cccc24)C2CC32)c1[C@H](OC(C)(C)C)C(=O)O,IIIB,EC50,MT-4,ATP,,,0.043 µM
CCN(C)c1nc(C(C)c2c(F)cccc2F)c(C)c(=O)[nH]1,NNRTI-resistant,EC50,MT-4,cytopathic effect / MTT,RT-Y188L,,0.03 µM
Cc1cc(S(=O)(=O)/N=C(\NN)Nc2ccc(Cl)cc2)c(S)cc1Cl,RF,EC50,CEM,cytopathic effect / XTT,,,>10 µM
Cc1cn([C@H]2C[C@H](N=[N+]=[N-])[C@@H](CO)O2)c(=O)[nH]c1=O,M6 (AZT-resistant),EC50,PBMC,RT activity,,,13.9 µM
CC(C)(C)NC(=O)[C@@H]1CN(Cc2cccnc2)CCN1C[C@@H](O)C[C@@H](Cc1ccccc1)C(=O)N[C@H]1c2ccccc2C[C@H]1OC(=O)CCCCOc1ccc(C[C@H](N)C(=O)O)cc1,LAI,EC50,CEM + CEM-SS,RT activity,,,0.009 µM
Cc1cn([C@H]2C[C@H](N=[N+]=[N-])[C@@H](CN3C(=S)c4ccccc4C3=S)O2)c(=O)[nH]c1=O,IIIB,EC50,CEM,syncytia,,,1.7 µM
Nc1cccc2c1nc(-c1c(F)cccc1F)n2Cc1c(F)cccc1F,,EC50,MT-4,cytopathic effect / MTT,RT-L100I,,0.3 µM
CCC(Cc1ccccc1)c1cc(O)c(C(c2cccc(NS(=O)(=O)c3cccnc3)c2)C2CC2)c(=O)o1,IIIB,EC50,MT-4,p24,,,2.6 µM
Cc1cc(S(=O)(=O)Nc2n[nH]c(Nc3ccccc3)n2)c(SSc2cc(Cl)c(C)cc2S(=O)(=O)Nc2n[nH]c(Nc3ccccc3)n2)cc1Cl,RF,EC50,CEM,cytopathic effect / XTT,,,6.2 µM
CC(C)(C)NC(=O)c1cc2ccccc2cc1C[C@@H](O)[C@H](Cc1ccccc1)NC(=O)[C@H](CC(N)=O)NC(=O)c1ccc2ccccc2n1,RF,EC50,CEM + CEM-SS,cytopathic effect / XTT,,,0.98 µM
CCC(Cc1ccccc1)c1cc(O)c(C(c2cccc(NS(=O)(=O)c3cn(C)cn3)c2)C2CC2)c(=O)o1,IIIB,EC50,MT-4,p24,,,1.3 µM
Cc1cc(S(=O)(=O)/N=C(/NN)NNc2cccc(C(F)(F)F)n2)c(S)cc1Cl,RF,EC50,CEM,cytopathic effect / XTT,,,>54 µM
CC(C)(C)N[C@@H](Cc1ccccc1)C(=O)N[C@@H](Cc1ccccc1)[C@H](O)CNC[C@@H](O)[C@H](Cc1ccccc1)NC(=O)[C@H](Cc1ccccc1)NC(C)(C)C,RF,EC50,CEM + CEM-SS,cytopathic effect / XTT,,,>4 µM
CCCS(=O)(=O)Nc1cccc(C(c2c(O)cc(C(CC)Cc3ccccc3)oc2=O)C2CC2)c1,IIIB,EC50,MT-4,p24,,,3.5 µM
O=S(=O)(Nc1nnc2n1-c1ccccc1CC2)c1ccc(Cl)cc1S,RF,EC50,CEM,cytopathic effect / XTT,,,>91.3 µM
CCC(Cc1ccccc1)c1cc(O)c(C(c2cccc(NS(=O)(=O)c3cccc4cccnc34)c2)C2CC2)c(=O)o1,IIIB,EC50,MT-4,p24,,,2.3 µM
NC(N)=NCCC[C@H](N)C(=O)NC[C@H]1O[C@H](O[C@H]2C(O)[C@@H](O[C@H]3O[C@H](CO)[C@@H](O)[C@H](NC(=O)[C@@H](N)CCCN=C(N)N)[C@H]3O)[C@H](NC(=O)[C@@H](N)CCCN=C(N)N)C[C@@H]2NC(=O)[C@@H](N)CCCN=C(N)N)[C@H](O)[C@@H](O)[C@@H]1O,NL4-3,EC50,MT-4,cytopathic effect / MTT,,,31 µM
Cc1cn([C@H]2C[C@H](N=[N+]=[N-])[C@@H](CO)O2)c(=O)[nH]c1=O,IIIB,EC50,HeLa + HeLa-MAGI,β-galactosidase,,,0.016 µM
CCOC(=O)c1cn([C@@H]2O[C@H](CO[Si](C)(C)C(C)(C)C)C3(OS(=O)(=O)C=C3N)[C@H]2O[Si](C)(C)C(C)(C)C)nn1,HE,EC50,CEM,p24,,,0.28 µM
Nc1nc2c(ncn2[C@H]2CC[C@@H](CO)O2)c(=O)[nH]1,TSAO-m3T-resistant (RT E138K),EC50,CEM,,RT-E138K,,0.77 µM
CC(C)(C)NC(=O)[C@@H]1CN(Cc2cccnc2)CCN1C[C@@H](O)C[C@@H](Cc1ccccc1)C(=O)N[C@H]1c2ccccc2C[C@H]1OC(=O)CCCCO[C@H]1O[C@H](CO)[C@@H](O)[C@H](O)[C@@H]1O,LAI,EC50,CEM + CEM-SS,RT activity,,,0.071 µM
Cc1cc(S(=O)(=O)Nc2nnc3c(Cl)cc(C(F)(F)F)cn23)c(S)cc1Cl,RF,EC50,CEM,cytopathic effect / XTT,,,46.4 µM
COc1ccc2c(O)c(C(c3cccc(NS(=O)(=O)c4ccc(F)cc4)c3)C3CC3)c(=O)oc2c1,IIIB,EC50,MT-4,p24,,,>>10 µM
O=[N+]([O-])c1ccc2c(ccn2-c2ccccc2[N+](=O)[O-])c1,IIIB,EC50,C8166,syncytia,,,11.24 µg/mL
Cc1cc(S(=O)(=O)Nc2n[nH]c(-c3ccc(Cl)cn3)n2)c(S)cc1Cl,RF,EC50,CEM,cytopathic effect / XTT,,,48.2 µM
CC(C)(C)OC(=O)N[C@@H](Cc1ccccc1)[C@H](O)CNC[C@@H](O)[C@H](Cc1ccccc1)NC(=O)COc1ccccc1,RF,EC50,CEM + CEM-SS,cytopathic effect / XTT,,,3.2 µM
Cc1cn([C@H]2C[C@H](N=[N+]=[N-])[C@@H](CN3C(=O)c4ccccc4C3=O)O2)c(=O)[nH]c1=O,IIIB,EC50,CEM,syncytia,,,1.4 µM

Repeating the first 3 entries:

{"SMILES": "CNNC(=NS(=O)(=O)c1cc(C#N)c(NNC)cc1S)NNC", "strain": "RF", "read-out": "EC50", "cells": "CEM", "method": "cytopathic effect / XTT", "result": ">110 µM"}
{"SMILES": "CCOC(OCC)c1cnnn1[C@@H]1O[C@H](CO[Si](C)(C)C(C)(C)C)C2(OS(=O)(=O)C=C2N)[C@H]1O[Si](C)(C)C(C)(C)C", "strain": "IIIB", "read-out": "EC50", "cells": "CEM", "method": "syncytia", "result": "150 µM"}
{"SMILES": "Cc1cn(-c2ccccc2[N+](=O)[O-])c2ccccc12", "strain": "IIIB", "read-out": "EC50", "cells": "C8166", "method": "syncytia", "result": "12.09 µg/mL"}